20 compounds from USRE49949E1, “Reducing risk of contracting clostridium-difficile associated disease” (The Board of Regents of the Nevada System of Higher …, priority 2012, dated 2024) can be followed below.

SMILES strings stand for the structures. Like-named read-outs stand apart in the source and are kept apart here.

This test has as its system C. difficile spores. Briefly: Activation of C. difficile spore germination by amino acid analogs with taurocholate. It counts as cell-based, Clostridium difficile strain 630.
Where [1] appears, read: 12 mM amino acid analog with 6 mM taurocholate.

As to `CC(C)C[C@H](N)C(=O)O` [Compound A22, L-leucine], under setting [1], the “activity as co-germinant / agonist of spore germination” value (shortened to “activity as co-germinant / agonist”) is given as “poor germinants”.
Still for that read-out and setting: next, `CC[C@H](N)C(=O)O` [Compound A18, L-2-aminobutyric acid]: “able to activate germination to levels similar to glycine”; `CCC[C@H](N)C(=O)O` [Compound A19, L-norvaline]: “able to activate germination to levels similar to glycine”.
Still for that read-out and setting: the entry for `C[C@H](N)C(=O)O` [Compound A16, L-alanine] is “as efficient at triggering germination as glycine”; for `NCCCC[C@H](N)C(=O)O` [Compound A28, L-lysine] it is “weak germinant”; for `C[N+](C)(C)CC(=O)O` [Compound A13, betaine, reference compound] it is “neither activate nor inhibit”.
On the same count and under the same terms, the entry for `CN(C)CC(=O)O` [Compound A12, N,N-dimethylglycine, reference compound] is “neither activate nor inhibit”; for `CCOC(=O)CN` [Compound A06, glycine ethyl ester, reference compound] it is “unable to activate or inhibit”.
As for `N[C@@H](Cc1c[nH]cn1)C(=O)O` [Compound A29, L-histidine], the “activity as co-germinant / agonist” value under setting [1] was “could not efficiently activate”.
On to `NCCC(=O)O` [Compound A02, β-Alanine], for which the “activity as co-germinant / agonist” value under setting [1] was “as effective as glycine”.
In the case of `NCC(N)=O` [Compound A07, glycinamide, reference compound], the “activity as co-germinant / agonist” value under setting [1] was “unable to activate or inhibit”.
Same read-out and setting: the entry for `CSCC[C@H](N)C(=O)O` [Compound A25, L-methionine] is “poor germinant”; for `N[C@@H](Cc1ccccc1)C(=O)O` [Compound A26, L-phenylalanine] it is “as effective as glycine”.
Turning to `N[C@@H](CS)C(=O)O` [Compound A23, L-cysteine], the “activity as co-germinant / agonist” value under setting [1] is listed as “good germinant”.
With `NCC(=O)NO` [Compound A08, glycine hydroxamate, reference compound], the “activity as co-germinant / agonist” value is listed as “unable to activate or inhibit”.
As to `N[C@@H](CO)C(=O)O` [Compound A24, L-serine], the “activity as co-germinant / agonist” value under setting [1] is “almost inactive”.
Turning to `CC[C@H](C)[C@H](N)C(=O)O` [Compound A21, L-isoleucine], the “activity as co-germinant / agonist” value under setting [1] is “poor germinants”.
Still for that read-out and setting: next, `C[C@@H](N)C(=O)O` [Compound A17, D-alanine, reference compound]: “inactive as an agonist”.
`NCC(=O)OC(=O)CN` [Compound A10, glycine anhydride, reference compound]: the “activity as co-germinant / agonist” value under setting [1] is recorded as “unable to activate or inhibit”.
On the same count and under the same terms, next, `CNCC(=O)O` [Compound A11, sarcosine, reference compound]: “neither activate nor inhibit”.
